{
  "source": "PubChem BioAssay AID977622",
  "about": "(Broad Institute, 2014)",
  "note": "The entries are a selection whose mix differs from that of the whole data set. Inconclusive results are not listed. Calls of active or inactive are those of the source.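 The calls were made as follows: active = Green signal of the normal strain falls at least twice as much as red signal of the resistant mutant, with overall culture growth loss under a set limit; inconclusive = no clear call, values can overlap the other calls; inactive = the rest.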",
  "data": [
    {"test": "wild-type E. coli growth inhibition versus h38 humanized strain – h38 mutant RFP, wild-type GFP, cherry-pick, dose response (AID 977622)", "conditions": "E. coli WT ribosome GFP fluorescence, mixed culture, 24 h; at 50 µM (top of the series)", "values": [
      {"compound": "O=[N+]([O-])c1cc([N+](=O)[O-])c(Nc2nnnn2CCO)c([N+](=O)[O-])c1", "activity change, negative = inhibition": "inactive: -10.9"}
    ]}
  ]
}
